From ChEMBL document CHEMBL1132687, “Synthesis and enantiopharmacology of new AMPA-kainate receptor agonists” (J Med Chem, 1999) come the findings set out here.

Several values for one entry are separate records, joined by “and”; a condition that tells them apart may be missing. Identical values can stand only once.

The nature of this assay: The potency ratio is the ratio between the CD50 value of the drug in the presence of an antagonist versus its CD50 value.
In the case of `C=C(C)[C@H]1CN[C@H](C(=O)O)[C@H]1CC(=O)O.CC1=NN=C(c2ccc(N)cc2)c2cc3c(cc2C1)OCO3`, the Potency ratio worked out at 7.2.

For `O=C(O)C1=NO[C@H]2CN[C@H](C(=O)O)[C@@H]12.O=C(O)C1CN(CCCP(=O)(O)O)CCN1` (stereo unspecified), the Potency ratio was 1.4. Take `CC1=NN=C(c2ccc(N)cc2)c2cc3c(cc2C1)OCO3.O=C(O)C1=NO[C@H]2[C@@H]1CN[C@@H]2C(=O)O`: the Potency ratio is 2.1 and 4.4. As to `C=C(C)[C@H]1CN[C@H](C(=O)O)[C@H]1CC(=O)O.NS(=O)(=O)c1cccc2c3c(cc([N+](=O)[O-])c12)=CC(=O)C(=O)C=3`, the Potency ratio was determined as 14.6. Take `Cc1onc(O)c1C[C@H](N)C(=O)O.NS(=O)(=O)c1cccc2c3c(cc([N+](=O)[O-])c12)=CC(=O)C(=O)C=3`: the Potency ratio is 5.4.

As for `CC1=NN=C(c2ccc(N)cc2)c2cc3c(cc2C1)OCO3.Cc1onc(O)c1C[C@H](N)C(=O)O`, the Potency ratio came out at 5.5. The same measure for `CC1=NN=C(c2ccc(N)cc2)c2cc3c(cc2C1)OCO3.O=C(O)C1=NO[C@H]2CN[C@H](C(=O)O)[C@@H]12`: 18.5 and 6.2; for `NS(=O)(=O)c1cccc2c3c(cc([N+](=O)[O-])c12)=CC(=O)C(=O)C=3.O=C(O)C1=NO[C@H]2[C@@H]1CN[C@@H]2C(=O)O`: 3.6 and 1.3; for `Cc1onc(O)c1C[C@H](N)C(=O)O.O=C(O)C1CN(CCCP(=O)(O)O)CCN1` (stereo unspecified): 1.5. Turning to `C=C(C)[C@H]1CN[C@H](C(=O)O)[C@H]1CC(=O)O.O=C(O)C1CN(CCCP(=O)(O)O)CCN1` (stereo unspecified), the Potency ratio worked out at 2.2. In the case of `O=C(O)C1=NO[C@H]2[C@@H]1CN[C@@H]2C(=O)O.O=C(O)C1CN(CCCP(=O)(O)O)CCN1` (stereo unspecified) it was 2.4 and 3.4.
